PubChem BioAssay AID624099 | ICCB-Longwood, 2012

- Aim: 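Knock-downs relieving repression by E2 of an HPV18 LCR luciferase reporter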 (primary screen)
- Cells: human C33A cervical carcinoma cells (HPV-negative) stably expressing BPV1 E2 and an HPV18 LCR luciferase reporter
- Reagents: siRNA pool against human genes, 40 nM
- Timing: 72 h
- Read-out: 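Per-well luciferase luminescence, z-scored on each plate against the plate mean and SD with control wells left out, then averaged across three replicate plates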
- Direction: mean z-score and z-score: higher = stronger reporter signal, weaker E2 silencing
- Call rule: 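Hit if mean z-score reaches 2 and two or more of three replicate z-scores also reach 2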
Shown is one part, drawn at random, of about 21,000 reagents tested. Of all reagents, 497 (2.4%) are marked active. 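Higher z means weaker E2 silencing; only reporter increases were scored, and knock-downs that hurt cell survival may mask genuine repressor factors.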 Reagent sequences are not shown.

gene symbol	mean z-score	z-score, replicate A	z-score, replicate B	z-score, replicate C	outcome
WEE2-AS1	-0.12	-0.09	-0.13	-0.12	inactive
GINS1	0.1	0.19	0.13	-0.02	inactive
BTBD17	-0.57	-0.69	-0.8	-0.21	inactive
LBR	0.4	0.19	0.46	0.55	inactive
EHD1	1.39	1.35	1.39	1.43	inactive
PNN	0.93	0.88	0.97	0.93	inactive
TMEM200B	0.34	0.49	-0.1	0.64	inactive
SLC26A5	-0.27	-0.06	-0.32	-0.44	inactive
ATP2B3	1.78	1.98	1.91	1.45	inactive
COPS5	-0.78	-0.79	-0.87	-0.7	inactive
TUFT1	-0.04	-0.17	-0.05	0.12	inactive
PI15	0.28	0.06	0.13	0.65	inactive
OR2M7	0.99	1.61	0.58	0.78	inactive
LINC01002	0.69	0.27	0.98	0.81	inactive
PARP6	-0.31	-0.34	-0.35	-0.25	inactive
LINC01587	-0.39	-0.49	-0.31	-0.36	inactive
THAP6	-0.42	-0.18	-0.52	-0.56	inactive
FBRS	-1.47	-1.68	-1.45	-1.29	inactive
TMEM82	-0.6	0	-0.79	-1.03	inactive
ZCCHC10	-1.29	-1.14	-1.46	-1.29	inactive
PEX5	0.35	0.4	0.21	0.43	inactive
MTCP1	-0.78	-0.66	-0.92	-0.74	inactive
ARF6	-0.7	-0.74	-0.71	-0.66	inactive
KRT24	-0.67	-0.82	-0.81	-0.38	inactive
OCIAD2	-0.58	-0.36	-0.32	-1.07	inactive
GPATCH2L	-0.65	-0.67	-0.75	-0.51	inactive
GFM1	0.78	0.56	0.88	0.89	inactive
TEX38	0.18	0.19	0.26	0.1	inactive
LOC389415 (retired record)	0.19	-0.01	0.31	0.28	inactive
MRPS33	-0.23	-0.11	-0.27	-0.33	inactive
KCTD6	-1.31	-1.28	-1.15	-1.49	inactive
TSR1	0.66	0.74	0.47	0.76	inactive
RARS2	1.39	1.38	1.36	1.42	inactive
LOC200491 (retired record)	-1.43	-1.03	-1.89	-1.38	inactive
C1orf50	-0.53	-0.51	-0.51	-0.56	inactive
SLC60A2	2.08	2.34	1.94	1.96	inactive
TUB	-0.2	0.27	-0.36	-0.49	inactive
TNRC6C	-0.26	-0.37	-0.22	-0.19	inactive
WRNIP1	0.89	0.74	1.08	0.84	inactive

Copied from above, 2 entries:
gene symbol	mean z-score	z-score, replicate A	z-score, replicate B	z-score, replicate C	outcome
TMEM82	-0.6	0	-0.79	-1.03	inactive
ZCCHC10	-1.29	-1.14	-1.46	-1.29	inactive
